# Kdimer by position in the HIV-1 leader RNA

Reference: Ye et al. 2022, doi:10.1038/s41594-022-00746-2.

RNA: 5' end of the HIV-1 NL4-3 genome, made in vitro. Positions 1-437 read:
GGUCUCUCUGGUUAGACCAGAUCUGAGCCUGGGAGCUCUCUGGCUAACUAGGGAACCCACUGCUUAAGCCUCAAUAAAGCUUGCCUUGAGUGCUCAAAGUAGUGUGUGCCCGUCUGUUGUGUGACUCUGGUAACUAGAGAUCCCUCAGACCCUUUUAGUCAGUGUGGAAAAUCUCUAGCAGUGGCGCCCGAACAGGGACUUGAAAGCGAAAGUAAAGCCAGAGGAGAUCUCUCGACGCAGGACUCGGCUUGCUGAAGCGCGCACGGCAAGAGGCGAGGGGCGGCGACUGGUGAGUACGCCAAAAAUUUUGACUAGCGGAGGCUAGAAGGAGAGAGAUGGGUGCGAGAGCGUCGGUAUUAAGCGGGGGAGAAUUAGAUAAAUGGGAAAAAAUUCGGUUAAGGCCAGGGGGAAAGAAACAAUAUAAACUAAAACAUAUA

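Mutant RNA libraries with 1G, 2G or 3G starts, with or without cap, were folded at 37 °C for 30 min. High salt was 300 mM KCl and 5 mM MgCl2, low salt 40 mM KCl and 0.1 mM MgCl2; monomer and dimer were parted on a native gel. Kdimer compares mutation frequencies in monomer and dimer, corrected for sequencing errors.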

Scale: median log2 Kdimer over the changes at a position; positive = changes inhibit dimerization, negative = changes enhance it.
One numbering serves 1G, 2G and 3G.
A position is written with its base.

{"position": "A21", "domain": "TAR", "1G uncapped high-salt": 0.18, "1G uncapped low-salt": -0.10, "2G capped high-salt": 0.04, "2G capped low-salt": -0.08}
{"position": "U22", "domain": "TAR", "1G uncapped high-salt": 0.01, "1G uncapped low-salt": 0.22, "2G capped high-salt": -0.03, "2G capped low-salt": -0.02}
{"position": "C23", "domain": "TAR", "1G uncapped high-salt": -0.01, "1G uncapped low-salt": -0.07, "2G capped high-salt": 0.07, "2G capped low-salt": 0.01}
{"position": "U24", "domain": "TAR", "1G uncapped high-salt": 0.17, "1G uncapped low-salt": -0.01, "2G capped high-salt": -0.13, "2G capped low-salt": -0.09}
{"position": "G25", "domain": "TAR", "1G uncapped high-salt": -0.08, "1G uncapped low-salt": -0.41, "2G capped high-salt": -0.64, "2G capped low-salt": -1.32}
{"position": "A26", "domain": "TAR", "1G uncapped high-salt": 0.11, "1G uncapped low-salt": 0.09, "2G capped high-salt": -0.05, "2G capped low-salt": -0.11}
{"position": "G27", "domain": "TAR", "1G uncapped high-salt": -0.42, "1G uncapped low-salt": -0.91, "2G capped high-salt": -0.43, "2G capped low-salt": -0.93}
{"position": "C28", "domain": "TAR", "1G uncapped high-salt": 0.11, "1G uncapped low-salt": -0.62, "2G capped high-salt": -0.53, "2G capped low-salt": -0.57}
{"position": "C29", "domain": "TAR", "1G uncapped high-salt": 0.04, "1G uncapped low-salt": -0.11, "2G capped high-salt": -0.05, "2G capped low-salt": -0.16}
{"position": "U30", "domain": "TAR", "1G uncapped high-salt": -0.19, "1G uncapped low-salt": -0.47, "2G capped high-salt": 0.02, "2G capped low-salt": -0.31}
{"position": "G31", "domain": "TAR", "1G uncapped high-salt": -0.06, "1G uncapped low-salt": -0.27, "2G capped high-salt": 0.10, "2G capped low-salt": -0.34}
{"position": "G32", "domain": "TAR", "1G uncapped high-salt": 0.08, "1G uncapped low-salt": -0.21, "2G capped high-salt": 0.11, "2G capped low-salt": -0.10}
{"position": "G33", "domain": "TAR", "1G uncapped high-salt": 0.07, "1G uncapped low-salt": -0.30, "2G capped high-salt": -0.01, "2G capped low-salt": -0.18}
{"position": "A34", "domain": "TAR", "1G uncapped high-salt": 0.12, "1G uncapped low-salt": -0.30, "2G capped high-salt": 0.04, "2G capped low-salt": -0.08}
{"position": "G35", "domain": "TAR", "1G uncapped high-salt": -0.09, "1G uncapped low-salt": -0.58, "2G capped high-salt": -0.44, "2G capped low-salt": -0.55}
{"position": "C36", "domain": "TAR", "1G uncapped high-salt": -0.05, "1G uncapped low-salt": -0.19, "2G capped high-salt": -0.33, "2G capped low-salt": -0.32}
{"position": "U37", "domain": "TAR", "1G uncapped high-salt": -0.28, "1G uncapped low-salt": -0.20, "2G capped high-salt": -0.44, "2G capped low-salt": -0.13}
{"position": "C38", "domain": "TAR", "1G uncapped high-salt": 0.06, "1G uncapped low-salt": -0.11, "2G capped high-salt": -0.18, "2G capped low-salt": 0.00}
{"position": "U39", "domain": "TAR", "1G uncapped high-salt": 0.12, "1G uncapped low-salt": -0.03, "2G capped high-salt": 0.08, "2G capped low-salt": 0.04}
{"position": "C40", "domain": "TAR", "1G uncapped high-salt": 0.02, "1G uncapped low-salt": -0.28, "2G capped high-salt": 0.14, "2G capped low-salt": 0.04}
{"position": "U41", "domain": "TAR", "1G uncapped high-salt": -0.06, "1G uncapped low-salt": -0.49, "2G capped high-salt": -0.29, "2G capped low-salt": -0.08}
{"position": "G42", "domain": "TAR", "1G uncapped high-salt": -0.25, "1G uncapped low-salt": -0.08, "2G capped high-salt": -0.37, "2G capped low-salt": -0.18}
{"position": "G43", "domain": "TAR", "1G uncapped high-salt": 0.06, "1G uncapped low-salt": 0.00, "2G capped high-salt": -0.14, "2G capped low-salt": -0.02}
{"position": "C44", "domain": "TAR", "1G uncapped high-salt": -0.06, "1G uncapped low-salt": -0.09, "2G capped high-salt": 0.03, "2G capped low-salt": -0.07}
{"position": "U45", "domain": "TAR", "1G uncapped high-salt": 0.03, "1G uncapped low-salt": -0.07, "2G capped high-salt": -0.04, "2G capped low-salt": -0.25}
{"position": "A46", "domain": "TAR", "1G uncapped high-salt": -0.05, "1G uncapped low-salt": -0.39, "2G capped high-salt": -0.09, "2G capped low-salt": -0.42}
{"position": "A47", "domain": "TAR", "1G uncapped high-salt": 0.00, "1G uncapped low-salt": -0.31, "2G capped high-salt": 0.04, "2G capped low-salt": 0.03}
{"position": "C48", "domain": "TAR", "1G uncapped high-salt": -0.08, "1G uncapped low-salt": -0.46, "2G capped high-salt": -0.33, "2G capped low-salt": -0.64}